Results of unrelated studies side by side (data: NIAID ChemDB).

Common to all: growth or infection tests; agent: HIV-1

ECn is the concentration giving n% inhibition of infection, replication or growth. Conditions beyond the fields shown may differ between rows. Blank or dashed fields: not listed here.

SMILES,read-out,read by,cell line,setting,strain,mutations,value
Nc1ccn([C@H]2CC[C@@H](CO)O2)c(=O)n1,EC50,,MM + M/M,,,,0.003 µM
Cc1occc1C(=S)Nc1ccc(Cl)c(C(=O)OC2CCCC2)c1,EC50,syncytia,CEM,,IIIB,RT-V106A,0.04 µg/mL
COc1ccc(CSc2nc(CC34CC5CC(CC(C5)C3)C4)c(C)c(=O)[nH]2)cc1,EC50,MTT / absorbance,MT-4,,RES056,,>1.92 µM
Nc1ncnc2c1ncn2CCOCP(=O)(O)O,EC50,p24,C8166,,RF,,0.9 µM
Cc1ccnc2c1NC(=O)c1cccnc1N2C1CC1,EC50,cytopathic effect / XTT,CEM + CEM-SS,,NL4-3,RT-Y181C,1.3 µM
Cc1cn([C@H]2C[C@H](N=[N+]=[N-])[C@@H](CO)O2)c(=O)[nH]c1=O,EC50,cytopathic effect / XTT,CEM + CEM-SS,,G762-3,,2.6 µM
CCC(C)Oc1nc(N)cc(S(=O)(=O)c2cccc(C)c2)n1,EC50,cytopathic effect / MTT,MT-4,,IIIB,,4.7 µM
CC(C)Nc1cccnc1N1CCN(C(=O)c2cc3cc(NS(C)(=O)=O)ccc3[nH]2)CC1,EC50,cytopathic effect / MTT,MT-4,,,RT-K103N,2.5 µM
Cc1c(CC23CC4CC(CC(C4)C2)C3)nc(SCC(=O)Nc2ccc(C#N)cc2)[nH]c1=O,EC50,MTT / absorbance,MT-4,,IIIB,,>6.69 µM
CCCc1cc(=O)oc2c3c(c4c(c12)OC(C)(C)C=C4)O[C@@H](C)[C@H](C)[C@@H]3O,EC50,XTT,CEM + CEM-SS,,NL4-3,RT-V106I,0.2 µM
Cc1ccnc2c1NC(=O)c1cccnc1N2C1CC1,EC50,MTT / absorbance,MT-4,,IIIB,,0.26 µM
Cn1cc(N)cc1C(=O)Nc1cc(C(=O)Nc2ccc3cc(S(=O)(=O)O)cc(S(=O)(=O)O)c3c2)n(C)c1,EC50,cytopathic effect / XTT,CEM + CEM-SS,,N119,,7 µM
Cc1cn([C@H]2C[C@H](N=[N+]=[N-])[C@@H](CO)O2)c(=O)[nH]c1=O,EC50,p24,PBMC,,S762-4 Clinical isolate ZDV-resistant,RT-M41L T215Y,1.2 µM
Cc1cn([C@H]2C[C@H](N=[N+]=[N-])[C@@H](CO)O2)c(=O)[nH]c1=O,EC50,,PBMC,,BCF07,RT-A98G V106I Y181C,<0.01 µM
Cc1cn([C@@H]2O[C@H](CO[Si](C)(C)C(C)(C)C)C3(OS(=O)(=O)C=C3N)[C@H]2O[Si](C)(C)C(C)(C)C)c(=O)n(C)c1=O,EC50,syncytia,CEM,,IIIB,RT-L100I,0.042 µg/mL
Cc1cn([C@H]2C[C@H](N=[N+]=[N-])[C@@H](CO)O2)c(=O)[nH]c1=O,EC50,cytopathic effect / XTT,CEM + CEM-SS,,4xAZT(RT-D67N K70R T215Y K219Q),RT-D67N K70R T215Y K219Q,0.82 µM
Nc1nc(N)c2ncn(CCOCP(=O)(O)O)c2n1,EC50,,Primary lymphocytes + Lymphocytes,,,,0.94 µM
Cc1cn([C@H]2C[C@H](F)[C@@H](CO)O2)c(=O)[nH]c1=O,EC50,p24 / ELISA,MT-4,,IIIB,,0.005 µM
CCCc1cc(=O)oc2c3c(c4c(c12)OC(C)(C)C=C4)O[C@H](C)C(C)(C)[C@@H]3O,EC50,cytopathic effect / MTT,CEM + CEM-SS,,IIIB,,>20.3 µM
Cc1ccnc2c1NC(=O)c1cccnc1N2C1CC1,EC50,,PBMC,,RUD (RT-A98G),RT-A98G,0.13 µM
Cc1cn([C@H]2C[C@H](N=[N+]=[N-])[C@@H](CO)O2)c(=O)[nH]c1=O,EC50,syncytia,CEM,,IIIB,,0.006 µg/mL
Cc1c(CC23CC4CC(CC(C4)C2)C3)nc(SCC(=O)Nc2ccc(C(N)=O)cc2)[nH]c1=O,EC50,MTT / absorbance,MT-4,,IIIB,,3.84 µM
CN(C)C(C)(c1nc(C(=O)NCc2ccc(F)cc2)c(O)c(=O)[nH]1)C(F)(F)F,EC50,p24,MT-4,10% FBS,IIIB,,<0.06 µM
CC(C)=CCN1Cc2cc(Cl)cc3[nH]c(=S)n(c23)C[C@@H]1C,EC50,,PBMC,,RUD (RT-A98G),RT-A98G,1.1 µM
CC(C)=CCOc1cc(NC(=S)c2ccoc2C)ccc1Cl,EC50,XTT,CEM + CEM-SS,,Costatolide-resistant (RT L100I T139I),RT-L100I T139I,0.04 µM
CCO/N=C(\c1ccc(Br)cc1)C1CCN(C2(C)CCN(C(=O)c3c(C)cc[n+]([O-])c3C)CC2)CC1,EC50,p24,PBMC,,R5-01 R5 clinical isolate,,0.0147 µM
CC[C@H](C)[C@H](NC(=O)[C@H](CCC(=O)O)NC(=O)[C@@H](NC(=O)[C@H](C)N)C(C)C)C(=O)NCC(=O)N[C@@H](C)C(=O)O,EC50,syncytia,HeLa + HELA CD4+,,BH10,,~750 µM
CCCc1cc(=O)oc2c3c(c4c(c12)OC(C)(C)C=C4)O[C@H](C)[C@@H](C)/C3=N/O,EC50,cytopathic effect / MTT,CEM + CEM-SS,,IIIB,,>15.8 µM
CO[P@](=O)(c1cc(C)cc(/C=C/C#N)c1)c1c(C(N)=O)[nH]c2ccc(Cl)c(F)c12,EC50,,MT-4,,IIIB,K103R/V179D/P225H,0.01 µM
O=C(NCc1ccc(F)cc1)c1nc(C(c2ccccc2)N2CCCCC2)[nH]c(=O)c1O,EC50,p24,MT-4,10% FBS,IIIB,,<0.31 µM
Cc1ccnc2c1NC(=O)c1cccnc1N2C1CC1,EC50,RT activity,PBMC,,WEJO,,0.06 µM
CCc1c(CC23CC4CC(CC(C4)C2)C3)nc(SCC(=O)c2ccc(OC)cc2)[nH]c1=O,EC50,MTT / absorbance,MT-4,,RES056,,>17.19 µM
CCCN(C)C(=O)Oc1nsnc1-c1c(Cl)ccc(C(=O)O)c1Cl,EC50,cytopathic effect / MTT,MT-4,,IIIB,,>256 µM
CCC[C@@]1(CCc2ccccc2)CC(O)=C([C@H](CC)c2cccc(NS(=O)(=O)c3ccc(C(F)(F)F)cn3)c2)C(=O)O1,EC90,p24,PBMC,,410 clinical isolates AZT-resistant,,0.04 µM
Cc1cn([C@@H]2O[C@H](CO[Si](C)(C)C(C)(C)C)C3(OS(=O)(=O)C=C3N)[C@H]2O[Si](C)(C)C(C)(C)C)c(=O)n(C)c1=O,EC50,syncytia,CEM,,IIIB,RT-V179D,0.097 ± 0.055 µM
CCN1CCCCC1c1nc(C(=O)NCc2ccc(F)cc2)c(O)c(=O)[nH]1,EC50,p24,MT-4,10% FBS,IIIB,,<0.25 µM
CC(=O)c1ccc(C)cc1NC(C(N)=O)c1c(Cl)cccc1Cl,EC50,p24,MT-4,,clinical isolate A018A AZT-sensitive,,0.031 µM
CCCc1cc(=O)oc2c3c(c4c(c12)OC(C)(C)C=C4)O[C@H](CC)[C@H](C)[C@@H]3O,EC50,cytopathic effect / MTT,CEM + CEM-SS,,IIIB,,>20.9 µM
CCN(C)C(C)(C)c1nc(C(=O)NCc2ccc(F)cc2)c(O)c(=O)[nH]1,EC50,p24,MT-4,50% human serum,IIIB,,<0.5 µM
Cc1cn([C@H]2C=C[C@@H](CO)O2)c(=O)[nH]c1=O,EC50,,MM + M/M,,,,0.25 µM
CCCc1cc(=O)oc2c3c(c4c(c12)OC(C)(C)C=C4)O[C@H](C)[C@@H](C)[C@@H]3O,EC50,RT activity,PBMC,,CLADE D,,0.06 µM
CCOCn1c(Cc2ccccc2)c(C(C)C)c(=O)[nH]c1=O,EC50,syncytia,CEM,,IIIB,RT-Y188L,5 µg/mL
O=c1cc(Sc2ccccc2)nc(Cl)[nH]1,EC50,cytopathic effect / MTT,MT-4,,IIIB,,>200 µM
COc1ccc(S(=O)(=O)N(CC(C)C)C[C@@H](O)[C@H](Cc2ccccc2)NC(=O)O[C@H]2CO[C@H]3O[C@@H]4OCC[C@@H]4[C@H]32)cc1,EC50,p24 / luminescence,MT-4,,NL4-3,A71T,0.0014 µM
CCC(C)Oc1cc(N)nc(Sc2ccccc2C)n1,EC50,cytopathic effect / MTT,MT-4,,IIIB,,>99 µM
CC(C)(C)NC(=O)[C@@H]1C[C@@H]2CCCC[C@@H]2CN1C[C@@H](O)[C@H](Cc1ccccc1)NC(=O)[C@H](CC(N)=O)NC(=O)c1ccc2ccccc2n1,EC50,,PBMC,,Clinical isolate,L10I L24I I33F E35D M36I N37S M46L I54V R57K I62V L63P A71V G73S V82A,0.53 µM
COC(=O)N[C@H](C(=O)N[C@@H](Cc1ccccc1)[C@@H](O)CN(Cc1ccc(-c2ccccn2)cc1)NC(=O)[C@@H](NC(=O)OC)C(C)(C)C)C(C)(C)C,EC50,p24 / luminescence,MT-4,,NL4-3,,0.0042 µM
Cc1c(CC23CC4CC(CC(C4)C2)C3)nc(SCC(=O)Nc2ccccc2)[nH]c1=O,EC50,MTT / absorbance,MT-4,,RES056,,>295 µM
CCCN(C)C(=O)Oc1nsnc1-c1c(Cl)ccc(N)c1Cl,EC50,p24,MT-4,,HE/NEV(RT-Y181C),,>18 µM
Nc1ccn([C@H]2CC[C@@H](CO)O2)c(=O)n1,EC50,p24,MT-4,,126 BCH-189 (RT-M184V),RT-M184V,2.3 µM
Nc1ccn([C@@H]2CO[C@H](CO)S2)c(=O)n1,EC50,p24,C8166,,HXB2,RT-D67N K70R T215Y K219Q,6.8 µM
COC(=O)N[C@H](C(=O)N[C@@H](Cc1ccccc1)[C@@H](O)CN(Cc1ccc(-c2ccccn2)cc1)NC(=O)[C@@H](NC(=O)OC)C(C)(C)C)C(C)(C)C,EC50,,PBMC,"clinical isolate, multidrug-resistant",Clinical isolate,L10I I15V K20R L24I M36I M46L I54V I62V L63P K70Q V82A L89M,0.43 µM
COc1ccc(S(=O)(=O)N(CC(C)C)C[C@@H](O)[C@H](Cc2ccccc2)NC(=O)O[C@H]2CO[C@@H]3O[C@H]4OCC[C@H]4[C@@H]32)cc1,EC50,p24 / luminescence,MT-4,,NL4-3,L10F V32I M46I I54M A71V I84V,>1 µM
CC(C)CN(C[C@@H](O)[C@H](Cc1ccccc1)NC(=O)O[C@H]1CO[C@H]2OCC(F)(F)[C@H]21)S(=O)(=O)c1ccc(N)cc1,EC50,,PBMC,"clinical isolate, multidrug-resistant",Clinical isolate,L10I I15V K20R L24I M36I M46L I54V I62V L63P K70Q V82A L89M,0.002 µM
O=C1N(Cc2ccc(CO)cc2)[C@H](Cc2ccccc2)[C@H](O)[C@@H](O)[C@@H](Cc2ccccc2)N1Cc1ccc(CO)cc1,EC50,p24,PBMC,,Clinical isolate C,,0.11 µM
C[C@H](Sc1nc(N)cc(Cl)n1)c1cc2ccoc2cn1,EC50,p24,MT-4,,IIIB,,<0.001 µM
CC(C)=CCN1Cc2cc(Cl)cc3[nH]c(=S)n(c23)C[C@@H]1C,EC50,cytopathic effect,CEM,,IIIB,,0.016 µg/mL
CCC(C)Oc1cc(=O)[nH]c(Sc2cccc(OC)c2)n1,EC50,cytopathic effect / MTT,MT-4,,IIIB,,150 µM
Nc1ccn([C@H]2CC[C@@H](CO)O2)c(=O)n1,EC50,cytopathic effect / MTT,MT-2,,G910-6 AZT-resistant,,~0.2 µM
Cc1occc1C(=S)Nc1ccc(Cl)c(/C=N/OC(C)(C)C)c1,EC50,cytopathic effect,CEM,,IIIB,RT-E138K,0.05 µg/mL
Fc1cccc(F)c1C1SCc2nc3ccccc3n21,EC50,cytopathic effect / XTT,CEM + CEM-SS,,IIIB HEPT-resistant (RT P236L),RT-P236L,0.3 µM
CC(C)=CCOc1cc(NC(=S)c2ccoc2C)ccc1Cl,EC50,cytopathic effect,CEM,,IIIB,RT-V106A,0.005 µg/mL
Cc1cn([C@H]2C[C@H](N=[N+]=[N-])[C@@H](CO)O2)c(=O)[nH]c1=O,EC50,RT activity,PBMC,,CLADE B,,0.1 µM
CC(c1nc(C(=O)NCc2ccc(F)cc2)c(O)c(=O)[nH]1)N(C)C,EC50,p24,MT-4,10% FBS,IIIB,,<0.12 µM
CCc1c(CC23CC4CC(CC(C4)C2)C3)nc(SCC(=O)Nc2ccc(C#N)cc2)[nH]c1=O,EC50,MTT / absorbance,MT-4,,RES056,,>5.49 µM
CCc1c(Sc2ccccn2)n(COCc2ccccc2)c(=O)[nH]c1=O,EC50,cytopathic effect / XTT,CEM + CEM-SS,,IIIB,RT-Y181C,1.6 µM
CC(C)Nc1cccnc1N1CCN(C(=O)c2cc3cc(NS(C)(=O)=O)ccc3[nH]2)CC1,EC90,p24,PBMC,,458 clinical isolates delavirdine-resistant,,7.7 µM
COC(=O)[C@H](C)NP(=O)(OC[C@@H]1C=C[C@H](n2cc(C)c(=O)[nH]c2=O)O1)Oc1ccc(Br)cc1,EC50,p24,PBMC,,A17 NNRTI-resistant lab strain,RT-Y181C,<0.001 µM
O=C(NCc1ccc(F)cc1)c1nc(C2CCNCC2)[nH]c(=O)c1O,EC95,p24,MT-4,50% human serum,IIIB,,>10 µM
CCCCSc1nc(Sc2ccccc2)cc(=O)[nH]1,EC50,cytopathic effect / MTT,MT-4,,IIIB,,65 µM
Cc1c(CC23CC4CC(CC(C4)C2)C3)nc(SCC(=O)c2ccccc2)[nH]c1=O,EC50,MTT / absorbance,MT-4,,IIIB,,1.05 µM
CC(C)=CCN1Cc2cc(Cl)cc3[nH]c(=S)n(c23)C[C@@H]1C,EC50,,MM + M/M,,,,0.05 µg/mL

Repeating the final 5 entries:

SMILES	read-out	read by	cell line	setting	strain	mutations	value
COC(=O)[C@H](C)NP(=O)(OC[C@@H]1C=C[C@H](n2cc(C)c(=O)[nH]c2=O)O1)Oc1ccc(Br)cc1	EC50	p24	PBMC		A17 NNRTI-resistant lab strain	RT-Y181C	<0.001 µM
O=C(NCc1ccc(F)cc1)c1nc(C2CCNCC2)[nH]c(=O)c1O	EC95	p24	MT-4	50% human serum	IIIB		>10 µM
CCCCSc1nc(Sc2ccccc2)cc(=O)[nH]1	EC50	cytopathic effect / MTT	MT-4		IIIB		65 µM
Cc1c(CC23CC4CC(CC(C4)C2)C3)nc(SCC(=O)c2ccccc2)[nH]c1=O	EC50	MTT / absorbance	MT-4		IIIB		1.05 µM
CC(C)=CCN1Cc2cc(Cl)cc3[nH]c(=S)n(c23)C[C@@H]1C	EC50		MM + M/M				0.05 µg/mL